Compound potency records, mixed from different reports. Data source: NIAID ChemDB in PubChem.

Common to all: tests in culture

Rows are shuffled and stem from different studies. a–b is a range or a potency band. Percent inhibition refers to the dose given; in toxicity tests it is the harm to the cells. ECn is the concentration giving n% inhibition of infection, replication or growth. An empty or dashed field is not shown. MIC50, MIC90 and the like: level of inhibition, or share of isolates inhibited.

smiles | cells | dose | species | endpoint | strain or isolate | method | value
Cc1cc(CCCOc2c(C)cc(-c3noc(C(F)(F)F)n3)cc2C)on1 | OHIO HELA-I |  | Rhinovirus | EC50 | Isolate 12 | cytopathic effect / visual reading | 0.03 µg/mL
CC(=O)N[C@H]1[C@H]([C@H](O)[C@H](O)CO)OC(C(=O)O)=C[C@@H]1N=C(N)N | MDCK |  | Influenza B virus | EC50 | Panama/45/90 |  | 1.3 µM
Oc1ccccc1N=Cc1cccc(O)c1O |  |  | Cryptococcus gattii | MIC99 | L 27/01 |  | 11.3 µg/mL
O=S(=O)(O)c1ccc(N=Nc2c(O)ccc3cc(S(=O)(=O)O)ccc23)cc1 | Human conjunctiva cells | 10 µg/mL | Herpes simplex virus | inhibition |  | cytopathic effect | 0%
CCOC(=O)c1ccc(OCCC2CCN(c3ccc(C)nn3)CC2)cc1 | KB |  | Rhinovirus | EC50 | FO 1-3774 (ICAM-1 receptor group 54) | neutral red | 0.108 µM
C=CCc1ccc(O)c(OC)c1 |  |  | Candida albicans | MIC90 | 2874 | turbidity | 485 µg/mL
O=c1[nH]c(=O)n([C@H]2C[C@H](O)[C@@H](CO)O2)cc1/C=C/Br | HELF | 0.01 µg/mL | Varicella zoster virus | inhibition | Asahikawa | plaque count | 26%
CC(C)(O)c1cn(-c2cccc3ccccc23)nn1 |  | 2048 µg/mL | Candida parapsilosis | inhibition | URM 4970 | broth dilution | 0%
CCCC(CCC)C(NC(C)=O)C1CC(C(=O)O)CC1N=C(N)N | MDCK |  | Influenza A virus | EC50 | H1N1 A/PR/8/34 |  | 0.7 µM
CN[C@H]1CC[C@@H](c2ccc(Cl)c(Cl)c2)c2ccccc21 |  |  | Cryptococcus neoformans | MIC90 | 99BC1-40 | broth dilution | 4 µg/mL
Nc1ncnc2c1ncn2[C@@H]1C=C[C@@H](O)[C@H]1O | CV-1 |  | Measles virus | EC50 | SA | cytopathic effect | 50 µg/mL
CC(C)(O)c1cn(-c2ccc([N+](=O)[O-])cc2)nn1 |  | 2048 µg/mL | Candida albicans | inhibition | URM 4388 | broth dilution | 0%
Oc1cccc(C=Nc2ccccc2O)c1 |  |  | Cryptococcus neoformans | MIC | 96806 | broth dilution | 4 µg/mL
CC[C@H](NC(=O)c1c2n(c(=O)n1-c1ccc(OC)cc1)CCN(C(=O)c1ccc(Br)c(Cl)c1)C2)c1ccccc1 | HepG2.117 |  | Hepatitis B virus | EC50 |  | PCR | 0.1–0.5 µM
CNc1n[nH]c2cc(-n3c(=O)c4c(n5ncc(CC(C)C)c35)CN(C(=O)c3ccc(Br)c(C(F)(F)F)c3)[C@H](C)C4)ccc12 | HepG2.117 |  | Hepatitis B virus | EC50 |  | luminescence | ≤0.05 µM
Nc1nc2c(ncn2COC(CO)CO)c(=O)[nH]1 |  |  | Human cytomegalovirus | EC50 | C4 (D341E) | virus yield | <1.8 µM
O=S(=O)([O-])c1ccc2c(O)cc(S(=O)(=O)[O-])cc2c1 | Human amnion AV3 cells | 10 µg/mL | Adenovirus | inhibition | TYPE 3 | cytopathic effect | 0%
CC(C)(O)c1cn(-c2ccc(Cl)cc2)nn1 |  |  | Candida parapsilosis | MIC | URM 4608 | broth dilution | 128 µg/mL
Cc1nc(NCCCCNc2ccnc3cc(Cl)ccc23)nc(-c2ccccc2)c1C(=O)OC(C)C |  |  | Cryptococcus gattii | MIC99 | L-28/02 |  | 8 µg/mL
Nc1ncnc2c1ncn2[C@@H]1CC[C@@H](O)[C@H]1O | CV-1 |  | Measles virus | EC50 | X-1108 | neutral red | >10 µg/mL
Nc1ccc2cc(S(=O)(=O)O)cc(S(=O)(=O)O)c2c1 | Human embryonic lung cells | 50 µg/mL | Adenovirus | inhibition | TYPE 3 | cytopathic effect | 0%
Cc1cc(-n2c(C(=O)NCc3ccccc3)c3n(c2=O)CCN(C(=O)c2ccc(Br)c(Cl)c2)C3)ccc1C#N | HepG2.117 |  | Hepatitis B virus | EC50 |  | PCR | 0.5–5 µM
O=S(=O)(O)CO | Human embryonic lung cells | 5 µg/mL | Adenovirus | inhibition | TYPE 3 | cytopathic effect | 0%
Cc1nc(-c2ccc(-n3c(=O)c4c(n5ncc(CC(C)C)c35)CN(C(=O)c3ccc(Br)c(Cl)c3)[C@H](C)C4)cc2)n[nH]1 | HepG2.117 |  | Hepatitis B virus | EC50 |  | luminescence | ≤0.05 µM
O=c1[nH]c(=O)n([C@@H]2O[C@H](CO)[C@@H](O)[C@@H]2O)cc1/C=C/Br | HELF | 0.001 µg/mL | Varicella zoster virus | inhibition | HIRAI | plaque count | 97%
N#Cc1cc([N+](=O)[O-])ccc1Oc1ccc(Cl)c(Cl)c1 | VERO | 0.125 µg/mL | Coxsackie virus | inhibition | TYPE B4 | plaque count | 9.09%
CO[C@H]1/C=C/O[C@@]2(C)Oc3c(C)c(O)c4c(O)c(c(/C=N/N5CCN(C6CCCC6)CC5)c(O)c4c3C2=O)NC(=O)/C(C)=C\C=C\[C@H](C)[C@H](O)[C@@H](C)[C@@H](O)[C@@H](C)[C@H](OC(C)=O)[C@@H]1C |  |  | Mycobacterium avium intracellulare | MIC | 9-Feb |  | 0.5 µg/mL
O=C(NCc1ccccc1)c1c2n(c(=O)n1-c1ccc3sccc3c1)CCN(C(=O)c1ccc(Br)c(Cl)c1)C2 | HepG2.117 |  | Hepatitis B virus | EC50 |  | PCR | 0.1–0.5 µM
O=c1[nH]c(=O)n([C@@H]2O[C@H](CO)[C@@H](O)[C@@H]2O)cc1/C=C/Cl | HELF | 0.0001 µg/mL | Varicella zoster virus | inhibition | HIRAI | plaque count | 4%
CCC(CC)[C@H](NC(C)=O)[C@@H]1C[C@@H](C(=O)O)C[C@H]1N=C(N)N | MDCK |  | Influenza A virus | EC50 | H1N1 A/NWS/33 |  | 19 µM
Cc1cn([C@@H]2O[C@H](CO)[C@@H](O)[C@@H]2O)c(=O)[nH]c1=O | HELF | 0.01 µg/mL | Varicella zoster virus | inhibition | HIRAI | plaque count | 24%
Cn1cc(C(=O)NCc2ccc(Cl)cc2)c(=O)c2cc(CN3CCOCC3)ccc21 | HFF | 1.6 µM | Varicella zoster virus | inhibition | KL varicella isolate | plaque count | 90%
COc1ccc(-n2c(C(=O)NCc3cccc4cccnc34)c3n(c2=O)CCN(C(=O)c2ccc(Br)c(Cl)c2)C3)cc1 | HepG2.117 |  | Hepatitis B virus | EC50 |  | PCR | 0.1–0.5 µM
O=S(=O)([O-])c1ccc(O)cc1 | Human amnion AV3 cells | 5 µg/mL | Herpes simplex virus | inhibition |  | cytopathic effect | 0%
CNC(=O)c1ccc(-n2c(=O)c3c(n4ncc(CC5CCOC5)c24)CN(C(=O)c2ccc(Br)c(Cl)c2)CC3)cc1 | HepG2.117 |  | Hepatitis B virus | EC50 |  | luminescence | ≤0.05 µM
CCC(CC)[C@H](NC(C)=O)[C@@H]1[C@H](O)[C@@H](C(=O)O)C[C@H]1N=C(N)N | MDCK |  | Influenza A virus | EC50 | H1N1 A/NWS/33 |  | 21 µM
CCC(CC)O[C@@H]1C=C(C(=O)O)C[C@H](N)[C@H]1NC(C)=O | MDCK |  | Influenza A virus | EC50 | H1N1 isolate C31C | plaque count | ≤0.03 µg/mL
COc1ccc(-n2c(C(=O)NCc3cnccn3)c3n(c2=O)CCN(C(=O)c2ccc(Br)c(Cl)c2)C3)cc1 | HepG2.117 |  | Hepatitis B virus | EC50 |  | PCR | >5 µM
Cc1ccc(-n2cc(C(C)(C)O)nn2)cc1C |  | 2048 µg/mL | Candida parapsilosis | inhibition | URM 3627 | broth dilution | 0%
COc1ccc(-n2c(C(=O)NCc3ccc(C(C)C)cc3)c3n(c2=O)CCN(C(=O)c2ccc(Br)c(Cl)c2)C3)cc1 | HepG2.117 |  | Hepatitis B virus | EC50 |  | PCR | 0.1–0.5 µM
CNC(=O)c1ccc(-n2c(=O)c3c(n4ncc(Cc5ccccc5)c24)CN(C(=O)c2ccc(Br)c(C(F)(F)F)c2)[C@@H](C)C3)cc1 | HepG2.117 |  | Hepatitis B virus | EC50 |  | luminescence | ≤0.05 µM
Nc1nc2c(ncn2COC(CO)CO)c(=O)[nH]1 |  |  | Human cytomegalovirus | EC90 | VR5611 (ganciclovir-susceptible) | plaque count | 6 µM
O=C(NCc1ccccc1-n1cncn1)c1c2n(c(=O)n1-c1ccc(OCC(F)(F)F)cc1)CCN(C(=O)c1ccc(Br)c(Cl)c1)C2 | HepG2.117 |  | Hepatitis B virus | EC50 |  | PCR | <0.1 µM
O=S(=O)([O-])c1ccc2c(NS(=O)(=O)c3ccccc3)cc(S(=O)(=O)[O-])cc2c1 | Human amnion AV3 cells | 5 µg/mL | Herpes simplex virus | inhibition |  | cytopathic effect | 0%
Nc1ncnc2c1ncn2[C@@H]1C[C@H](N)[C@@H](O)[C@H]1O | CV-1 |  | Measles virus | EC50 | BIL | cytopathic effect | 100 µg/mL
C/C=C/C/C=C/CCC(=O)[C@H]1O[C@H]1C(N)=O |  |  | Escherichia coli | MIC | UB1005 (TLM-S) |  | 20 µg/mL
CS[C@H]1C=C[C@@H](n2cnc3c(N)ncnc32)C1 | CV-1 |  | Measles virus | EC50 |  | cytopathic effect | >100 µg/mL
CCc1cn([C@@H]2O[C@H](CO)[C@@H](O)[C@@H]2O)c(=O)[nH]c1=O | HELF | 100 µg/mL | Varicella zoster virus | inhibition | Ohtomo | plaque count | 52%
CCCCCCCCCCCCOC(=O)[C@]1(O)C[C@@H](O)[C@@H](O)[C@H](OC(=O)/C=C/c2ccc(O)c(O)c2)C1 |  |  | Aspergillus ochraceus | MIC80 | CB 108.08 | absorbance | >2900 µM

For reference, 2 entries again:

O=C(NCc1ccccc1-n1cncn1)c1c2n(c(=O)n1-c1ccc(OCC(F)(F)F)cc1)CCN(C(=O)c1ccc(Br)c(Cl)c1)C2 ; cells: HepG2.117 ; species: Hepatitis B virus ; endpoint: EC50 ; method: PCR ; value: <0.1 µM
COc1ccc(-n2c(C(=O)NCc3cnccn3)c3n(c2=O)CCN(C(=O)c2ccc(Br)c(Cl)c2)C3)cc1 ; cells: HepG2.117 ; species: Hepatitis B virus ; endpoint: EC50 ; method: PCR ; value: >5 µM